Results of unrelated studies side by side (data: NIAID ChemDB).

Shared fields: tests in culture; organism: HIV-1; read by: cytopathic effect; read-out: EC50

ECn is the concentration giving n% inhibition of infection, replication or growth. Neighbouring rows are from separate reports. Blank or dashed fields: not listed here.

SMILES | conditions | strain | mutations | cells | result
Cc1cn([C@H]2C[C@H](N=[N+]=[N-])[C@@H](CO)O2)c(=O)[nH]c1=O |  |  | RT-L100I | CEM | 0.008 µM
CCCO[C@@H](C(=O)N[C@H](C(=O)NC)C(C)C)[C@H](O)[C@@H](O)[C@@H](OCCC)C(=O)N[C@H](C(=O)NC)C(C)C |  |  |  | MT-4 | >192 µM
Cc1cn([C@@H]2O[C@H](CO[Si](C)(C)C(C)(C)C)C3(OS(=O)(=O)C=C3N)[C@H]2O[Si](C)(C)C(C)(C)C)c(=O)n(C)c1=O |  | IIIB |  | CEM | 0.015 µg/mL
Nc1ccn([C@H]2C[C@H](F)[C@@H](CO)O2)c(=O)n1 |  | IIIB |  | MT-4 | 16 µM
CCCCN(CC)C(=O)Oc1nsnc1-c1c(Cl)cccc1Cl |  | IIIB |  | MT-4 | 0.335 µM
Nc1ncnc2c1ncn2[C@@H]1C=C(CO)[C@@H](O)[C@H]1O |  | LAV Laboratory strain |  | ATH8 | >5 µg/mL
Cc1nc(CCCCCCC(=O)c2ccccc2)n2nc(-n3ccnn3)ccc12 |  | RF |  | MT-4 | 0.72 µM
OC[C@@H]1CS[C@@H](n2cnc3c(Cl)ncnc32)C1 |  |  |  | MT-4 | >1.35 µM
Cc1cn([C@H]2C=C[C@@H](CO)O2)c(=O)[nH]c1=O |  | DI-06.92 (HXB2 RT-K70R) | RT-K70R | MT-4 | 1.9 µM
Nc1ccn([C@H]2CC[C@@H](CO)O2)c(=O)n1 |  | AZT-resistant (RT M41L T215Y) | RT-M41L T215Y | MT-4 | 0.045 µM
COc1cc(OC)c(C2SCC(=O)N2c2cccc(C)n2)c(OC)c1 |  | IIIB | RT | MT-4 | 25.94 µM
CCCCOc1nc(N)nc2c1ncn2[C@H]1C[C@H](N=[N+]=[N-])[C@@H](CO)O1 |  | IIIB |  | MT-4 | 19 µM
O=S1(=O)N(Cc2ccc(CCO)cc2)[C@H](COc2ccccc2)[C@H](O)[C@@H](O)[C@@H](COc2ccccc2)N1Cc1ccc(CCO)cc1 |  |  |  | MT-4 | >75 µM
Cc1cn([C@H]2C[C@H](N=[N+]=[N-])[C@@H](CO)O2)c(=O)[nH]c1=O |  | IIIB |  | CEM | 0.03 µM
Fc1cccc(F)c1[C@H]1SCc2nc3ccccc3n21 |  | MN |  | MT-4 | 0.14 µM
CC[C@H]1C(=O)Nc2ccc(F)cc2N1C(=O)OC(C)C |  | NNRTI-resistant | RT-V106A | CEM | 0.075 µM
CSc1ccc2c(C)nc(CCCCCCC(=O)c3ccccc3)n2n1 |  | RF |  | MT-4 | 0.63 µM
CC(C)(C)NC(=O)[C@@H]1C[C@@H]2CCCC[C@@H]2CN1C[C@@H](O)[C@H](Cc1ccccc1)NC(=O)[C@H](CC(N)=O)NC(=O)c1ccc2ccccc2n1 |  | IIIB |  | C8166 | 0.0016 µM
CCCCN(C)C(=O)Oc1nsnc1-c1c(Cl)cccc1Cl |  | IIIB |  | MT-4 | 0.0338 µM
Cc1cn([C@H]2C=C[C@@H](CO)O2)c(=O)[nH]c1=O |  | IIIB |  | ATH8 | <0.25 µg/mL
Fc1cccc(F)c1C1SCc2nc3ccccc3n21 |  | IIIB |  | MT-4 | 0.66 µM
Cc1ccnc2c1NC(=O)c1cccnc1N2C1CC1 |  | NL4-3 | RT-K103N Y181C | MT-4 | >15 µM
CNC(=O)[C@@H](NC(=O)[C@H](OCc1ccccc1)[C@H](O)[C@@H](O)[C@@H](OCc1ccccc1)C(=O)N[C@H](C(=O)NC)C(C)C)C(C)C |  |  |  | MT-4 | 1.32 µM
Fc1ccc(Cl)c(C2OCc3nc4ccccc4n32)c1 |  | IIIB |  | CEM | 3.8 µM
CCc1nc(CCCCCCC(=O)c2ccccc2)n2nc(Cl)ccc12 |  | RF |  | MT-4 | >25 µM
CC(C)=CCOc1cc(NC(=S)c2ccsc2C)ccc1Cl |  |  |  | CEM | 0.005 µg/mL
Nc1ncnc2c1ncn2C[C@H](O)CO |  | LAV Laboratory strain |  | ATH8 | >100 µg/mL
c1ccc(C2OCc3nc4ccccc4n32)cc1 |  | IIIB |  | MT-4 | >30 µM
Cc1cn([C@H]2C[C@H](CO)CS2)c(=O)[nH]c1=O |  |  |  | MT-4 | >100 µM
Cc1ccnc(N2C(=O)CSC2c2c(Cl)cccc2Cl)n1 |  | IIIB |  | CEM | 0.032 µM
CC(C)=CCOc1cc(NC(=S)c2ccoc2C)ccc1Cl |  | IIIB | RT-V106A | CEM | 0.005 µg/mL
Cc1cn([C@H]2C[C@H](N=[N+]=[N-])[C@@H](CO)O2)c(=O)[nH]c1=O |  | LZ-05.95 |  | MT-4 | 0.03 µM
O=c1[nH]cnc2c1ncn2[C@H]1CC[C@@H](CO)O1 |  | IIIB |  | ATH8 | 8 µM
CC(C)=CCOc1cc(NC(=S)c2ccoc2C)ccc1Cl |  | Recombinant | RT-V106A P225H | MT-4 | 0.517 µM
[N-]=[N+]=N[C@H]1C[C@H](n2cnc3c(Nc4ccccc4)nc(N)nc32)O[C@@H]1CO |  | IIIB |  | MT-4 | >200 µM
CSC[C@H](NC(=O)COc1cccc2cnccc12)C(=O)N[C@@H](Cc1ccccc1)[C@H](O)C(=O)N1CSC(C)(C)[C@H]1C(=O)NC(C)(C)C |  | MN |  | ATH8 | 0.03 µM
Cc1ccc(CN2C(=O)CSC2c2c(Cl)cccc2Cl)o1 |  | IIIB | RT | MT-4 | 2.13 µM
Cc1cn([C@H]2C[C@H](N=[N+]=[N-])[C@@H](CO)O2)c(=O)[nH]c1=O |  | RF |  | MT-4 | 0.019 µg/mL
CCc1c([Se]c2ccccn2)n(COCc2ccccc2)c(=O)[nH]c1=O |  | IIIB |  | MT-2 | 0.04 ± 0.02 µM
CC[C@H]1C(=O)Nc2ccc(F)cc2N1C(=O)OC(C)C |  | A-0 (RT-L100I) | RT-L100I | CEM | 0.0014 µg/mL
Cc1ccnc2c1NC(=O)c1cccnc1N2C1CC1 |  | IIIB |  | MT-2 | 0.48 ± 0.32 µM
Nc1ccn([C@H]2CC[C@@H](CO)O2)c(=O)n1 |  | AJ-05.93 (HXB2(RT-L74V)) | RT-L74V | MT-4 | 3.89 µM
O=c1ccn([C@@H]2C[C@H](CO)CS2)c(=O)[nH]1 |  |  |  | MT-4 | >100 µM
Nc1nc(=O)n([C@@H]2CS[C@H](CO)O2)cc1F | 14 d | LAV-1 |  | CEM(TK-) + CEM TK- | 0.49 µM
Nc1ccn([C@H]2CC[C@@H](CO)O2)c(=O)n1 |  | IIIB |  | MT-4 | 0.3 µM
CCCNc1nc(N)nc2c1ncn2[C@H]1C[C@H](N=[N+]=[N-])[C@@H](CO)O1 |  | IIIB |  | MT-4 | 23 µM
NC(=O)c1ncn([C@@H]2O[C@H](CO)[C@@H](O)[C@H]2O)n1 |  | LAV Laboratory strain |  | ATH8 | >100 µg/mL
CC(C)=CCN1Cc2cc(Cl)cc3[nH]c(=O)n(c23)C[C@@H]1C |  | Recombinant | RT-V106A P225H | MT-4 | 5.1 µM
CCN1c2cc(C)c(C)cc2N(C)S(=O)(=O)c2cccnc21 |  | MN |  | C8166 | 0.06 µM
[N-]=[N+]=N[C@H]1C[C@H](n2cnc3c(N4CCC4)nc(N)nc32)O[C@@H]1CO |  | IIIB |  | MT-4 | 9 µM
CCN(CC)C(=O)Oc1nsnc1-c1c(Cl)cccc1Cl |  | IIIB |  | MT-4 | 0.245 µM
CCc1cn([C@H]2CC[C@@H](CO)O2)c(=O)[nH]c1=O |  | IIIB |  | MT-4 | >625 µM
Cc1cn([C@@H]2O[C@H](CO[Si](C)(C)C(C)(C)C)C3(OS(=O)(=O)C=C3N)[C@H]2O[Si](C)(C)C(C)(C)C)c(=O)n(C)c1=O |  | NNRTI-resistant | RT-Y181C | CEM | >15 µM
Cc1nc(CCCCCCC(=O)c2ccccc2)n2nc(N)ccc12 |  | RF |  | MT-4 | 0.89 µM
Cc1nc(N2C(=O)CSC2c2c(Cl)cccc2Cl)ccc1Br |  | IIIB |  | MT-4 | 1.03 µM
Cc1cn([C@H]2CC[C@@H](CO)O2)c(=O)[nH]c1=O |  | IIIB |  | MT-4 | 6 µM
O=C(O)c1cc[c]([Sb](=[O])([OH])[OH])cc1[N+](=O)[O-] |  | RF |  | CEM + CEM-SS | 8.68 µM
CC(C)=CCOc1cc(NC(=S)c2ccoc2C)ccc1Cl |  | E-2 (RT-V106A) | RT-V106A | CEM | 0.0082 µg/mL
CC(C)Nc1cccnc1N1CCN(C(=O)c2cc3cc(NS(C)(=O)=O)ccc3[nH]2)CC1 |  | NNRTI-resistant | RT-V106A | CEM | 0.1 µM
Cc1cn([C@@H]2O[C@H](CO[Si](C)(C)C(C)(C)C)C3(OS(=O)(=O)C=C3N)[C@H]2O[Si](C)(C)C(C)(C)C)c(=O)n(C)c1=O |  | IIIB |  | C8166 | 0.045 µM
CCc1c(Sc2ccccc2)n(COCc2ccccc2)c(=O)[nH]c1=O |  | TIBO-RS |  | MT-2 | 0.25 ± 0.01 µM
C=C(C)OC(=O)N1c2cc(Cl)ccc2NC(=S)C1(C)C |  | Recombinant | RT-V106A | MT-4 | 0.06 µM
OC[C@@H]1CS[C@H](n2cnc3c(Cl)ncnc32)C1 |  |  |  | MT-4 | >2.31 µM
O=C1CSC(c2c(Cl)cccc2Cl)N1C1CCCCC1 |  | IIIB |  | MT-4 | 4.24 µM
O=C1CSC(c2c(Cl)cccc2Cl)N1c1ncccn1 |  | IIIB |  | MT-4 | 0.227 µM
Fc1cccc(F)c1C1SCc2nc3ccccc3n21 |  |  | RT-E138K | CEM | 1.73 µM
Cc1nc(CCCCCCC(=O)c2ccccc2)n2nc(-n3cncn3)ccc12 |  | RF |  | MT-4 | 0.44 µM
Fc1cccc(F)c1[C@@H]1SCc2nc3ccccc3n21 |  | MN |  | MT-4 | 0.9 µM
CCCCCCCSc1nsc(NC(=O)Nc2ccccc2)n1 |  | NL4-3 | DS-resistant | MT-4 | 19.4 µM
COc1ccc2c(c1)N(C(=O)OC(C)C)[C@@H](CSC)C(=S)N2 |  | Recombinant | RT-P225H | MT-4 | 0.004 µM
CCN1c2ncccc2N(C)C(=S)c2oc3cccnc3c21 |  | HE |  | MT-4 | 0.5 µM
COc1nc(=O)[nH]c2c1C(c1ccc([N+](=O)[O-])cc1)c1c(OC)nc(=O)[nH]c1O2 |  | IIIB |  | MT-4 | >313 µM
CC1SC(c2c(F)cccc2F)N(Cc2ccco2)C1=O |  | IIIB |  | MT-4 | 108 µM
CC(C)Nc1cccnc1N1CCN(C(=O)c2cc3cc(NS(C)(=O)=O)ccc3[nH]2)CC1 |  | J-2 (RT-Y181C) | RT-Y181C | CEM | 0.0075 µg/mL
CC(C)Nc1cccnc1N1CCN(C(=O)c2cc3cc(NS(C)(=O)=O)ccc3[nH]2)CC1 |  | IIIB | RT-K103N | CEM | 0.27 µg/mL
COc1cc(C)nc(N2C(=O)CSC2c2c(Cl)cccc2Cl)n1 |  |  | RT-K103N | CEM | 21.6 µM
Nc1nc2c(ncn2[C@H]2CC[C@@H](CO)O2)c(=O)[nH]1 |  | IIIB |  | ATH8 | 7 µM
CCCN(C)C(=O)Oc1nsnc1-c1c(Cl)cccc1Cl |  | HE |  | MOLT-4 | 0.011 µM
Cc1cn([C@H]2C[C@H](N=[N+]=[N-])[C@@H](CO)O2)c(=O)[nH]c1=O |  | NL4-3 | RT-K103N Y181C | MT-4 | 0.003 µM
O=C1CSC(c2c(F)cccc2Cl)N1c1cccc(C(F)(F)F)c1 |  | IIIB |  | MT-4 | 7.05 µM
CNC(=O)[C@@H](NC(=O)[C@H](OCc1ccc(/C=C/C(=O)OC)cc1)[C@H](O)[C@@H](O)[C@@H](OCc1ccc(/C=C/C(=O)OC)cc1)C(=O)N[C@H](C(=O)NC)C(C)C)C(C)C |  |  |  | MT-4 | 2.58 µM

9 of the rows above, restated:

Fc1cccc(F)c1C1SCc2nc3ccccc3n21 ; mutations: RT-E138K ; cells: CEM ; result: 1.73 µM
CC(C)=CCOc1cc(NC(=S)c2ccoc2C)ccc1Cl ; strain: Recombinant ; mutations: RT-V106A P225H ; cells: MT-4 ; result: 0.517 µM
CC(C)=CCOc1cc(NC(=S)c2ccoc2C)ccc1Cl ; strain: E-2 (RT-V106A) ; mutations: RT-V106A ; cells: CEM ; result: 0.0082 µg/mL
CCN1c2cc(C)c(C)cc2N(C)S(=O)(=O)c2cccnc21 ; strain: MN ; cells: C8166 ; result: 0.06 µM
Cc1cn([C@H]2C[C@H](CO)CS2)c(=O)[nH]c1=O ; cells: MT-4 ; result: >100 µM
Cc1cn([C@H]2C[C@H](N=[N+]=[N-])[C@@H](CO)O2)c(=O)[nH]c1=O ; mutations: RT-L100I ; cells: CEM ; result: 0.008 µM
COc1cc(OC)c(C2SCC(=O)N2c2cccc(C)n2)c(OC)c1 ; strain: IIIB ; mutations: RT ; cells: MT-4 ; result: 25.94 µM
Cc1ccc(CN2C(=O)CSC2c2c(Cl)cccc2Cl)o1 ; strain: IIIB ; mutations: RT ; cells: MT-4 ; result: 2.13 µM
Nc1ccn([C@H]2CC[C@@H](CO)O2)c(=O)n1 ; strain: AJ-05.93 (HXB2(RT-L74V)) ; mutations: RT-L74V ; cells: MT-4 ; result: 3.89 µM